A mixed list of measured activities; the numbers were collected in NIAID ChemDB.

Shared fields: growth or infection tests; species: Aspergillus fumigatus; measure: MIC

Blank or dashed fields: not listed here. Conditions beyond the fields shown may differ between rows.

compound | strain or isolate | result
C[C@@H](n1ccn(-c2ccc(OC(F)(F)C(F)F)cc2)c1=O)C(O)(Cn1cncn1)c1ccc(F)cc1F | 437 | 2 µg/mL
CCCCCC1C=C(c2ccc(Cl)c(Cl)c2)C(=O)O1 | 231 | >125 µM
CCC(C)CCCCCCCCC1CC(=O)NCC(=O)N[C@@H](CCCN)C(=O)N[C@@H](C(C)C)C(=O)N1 | IFM4942 | >80 µg/mL
Cc1cc(NS(=O)(=O)c2ccc(N)cc2)no1 | IFM 51126 | 64 µg/mL
CN[C@@H]1[C@H](O[C@@H]2OC[C@@H](O)[C@H](O)[C@H]2O)[C@@H](O)[C@H](O[C@H]2c3cc(C)c(C(=O)NCC(=O)O)c(O)c3-c3c(cc4c(c3O)C(=O)c3cc(OC)cc(O)c3C4=O)[C@@H]2O)O[C@@H]1CO | IAM2530 | 6.3 µg/mL
COc1ccc(NS(=O)(=O)c2ccc(N)cc2)nn1 | IFM 48051 | ≥256 µg/mL
CC1C=C(c2cc3ccccc3s2)C(=O)O1 | 231 | >125 µM
CN(Cc1cccc2ccccc12)/N=C\c1ccc(Cl)cc1 |  | >64 µg/mL
CC(N1CCN(c2ccc(-n3cnnn3)cc2)C1=O)[C@](O)(Cn1cncn1)c1ccc(F)cc1F | IFO6344 | 0.5 µg/mL
CC1C=C(c2ccc(Cl)c(Cl)c2)C(=O)O1 | 231 | >62.5 µM
Cc1ccc(/C=N\N(C)Cc2cccc3ccccc23)cc1 |  | >64 µg/mL
CCC1C=C(c2ccc(Br)cc2)C(=O)O1 | 231 | 62.5 µM
CC(C)CCCCCCCCCC1CC(=O)NCC(=O)N[C@@H](CCCCN)C(=O)N[C@@H](C(C)C)C(=O)N1 | IFM4942 | >80 µg/mL
C[C@@H](n1ncn(-c2ccc(OCC(F)(F)C(F)F)cc2)c1=O)[C@](O)(Cn1cncn1)c1ccc(F)cc1F | IFO6344 | 2 µg/mL
CC1C=C(c2ccc(Cl)cc2)C(=O)O1 | 231 | >125 µM
Cc1ccc(C(C)C)c(O)c1 | ATCC 46645 | 0.16 µg/mL
CC1C=C(c2ccccc2Cl)C(=O)O1 | 231 | >125 µM
CN(Cc1cccc2ccccc12)/N=C\c1ccccc1Cl |  | >64 µg/mL
COc1cc(NS(=O)(=O)c2ccc(N)cc2)ncn1 | IFM 41362 | 64 µg/mL
C[C@@H](N1CCN(c2ccc(C(F)(F)F)cc2)C1=O)C(O)(Cn1cncn1)c1ccc(F)cc1F | IFO6344 | 1 µg/mL
COc1cc(/C=N\N(C)Cc2cccc3ccccc23)ccc1O |  | >64 µg/mL
C[C@@H](N1CCN(c2ccc(-n3cnnn3)cc2)C1=O)[C@@](O)(Cn1cncn1)c1ccc(F)cc1F | TIMM1728 | >64 µg/mL
C[C@@H](N1CCN(c2ccc(OC(F)(F)C(F)F)cc2)C1=O)C(O)(Cn1cncn1)c1ccccc1F | IFO6344 | 0.5 µg/mL
CC1C=C(c2ccc([N+](=O)[O-])cc2)C(=O)O1 | 231 | >125 µM
C[C@@H](n1ccn(-c2ccc(OCC(F)(F)C(F)F)cc2)c1=O)C(O)(Cn1cncn1)c1ccc(F)cc1F | 437 | 2 µg/mL
COc1cc(NS(=O)(=O)c2ccc(N)cc2)nc(OC)n1 | IFM 41362 | 128 µg/mL
C[C@@H](n1ccn(-c2ccc(OCC(F)(F)C(F)F)cc2)c1=O)C(O)(Cn1cncn1)c1ccccc1F | 437 | 2 µg/mL
CCCCCC1C=C(c2ccc(Br)cc2)C(=O)O1 | 231 | 62.5 µM

For reference, 2 entries again:

compound,strain or isolate,result
CN[C@@H]1[C@H](O[C@@H]2OC[C@@H](O)[C@H](O)[C@H]2O)[C@@H](O)[C@H](O[C@H]2c3cc(C)c(C(=O)NCC(=O)O)c(O)c3-c3c(cc4c(c3O)C(=O)c3cc(OC)cc(O)c3C4=O)[C@@H]2O)O[C@@H]1CO,IAM2530,6.3 µg/mL
Cc1ccc(/C=N\N(C)Cc2cccc3ccccc23)cc1,,>64 µg/mL